Test results: ChEMBL document CHEMBL3351716, “Targeting the androgen receptor with steroid conjugates” (J Med Chem, 2014)

How the values were obtained:
[1] = biological target: T1, Progesterone receptor (Homo sapiens) (UniProt P06401); assay: Binding affinity to progesterone receptor (unknown origin) by radiometric competitive assay
T1 sequence (whole entry): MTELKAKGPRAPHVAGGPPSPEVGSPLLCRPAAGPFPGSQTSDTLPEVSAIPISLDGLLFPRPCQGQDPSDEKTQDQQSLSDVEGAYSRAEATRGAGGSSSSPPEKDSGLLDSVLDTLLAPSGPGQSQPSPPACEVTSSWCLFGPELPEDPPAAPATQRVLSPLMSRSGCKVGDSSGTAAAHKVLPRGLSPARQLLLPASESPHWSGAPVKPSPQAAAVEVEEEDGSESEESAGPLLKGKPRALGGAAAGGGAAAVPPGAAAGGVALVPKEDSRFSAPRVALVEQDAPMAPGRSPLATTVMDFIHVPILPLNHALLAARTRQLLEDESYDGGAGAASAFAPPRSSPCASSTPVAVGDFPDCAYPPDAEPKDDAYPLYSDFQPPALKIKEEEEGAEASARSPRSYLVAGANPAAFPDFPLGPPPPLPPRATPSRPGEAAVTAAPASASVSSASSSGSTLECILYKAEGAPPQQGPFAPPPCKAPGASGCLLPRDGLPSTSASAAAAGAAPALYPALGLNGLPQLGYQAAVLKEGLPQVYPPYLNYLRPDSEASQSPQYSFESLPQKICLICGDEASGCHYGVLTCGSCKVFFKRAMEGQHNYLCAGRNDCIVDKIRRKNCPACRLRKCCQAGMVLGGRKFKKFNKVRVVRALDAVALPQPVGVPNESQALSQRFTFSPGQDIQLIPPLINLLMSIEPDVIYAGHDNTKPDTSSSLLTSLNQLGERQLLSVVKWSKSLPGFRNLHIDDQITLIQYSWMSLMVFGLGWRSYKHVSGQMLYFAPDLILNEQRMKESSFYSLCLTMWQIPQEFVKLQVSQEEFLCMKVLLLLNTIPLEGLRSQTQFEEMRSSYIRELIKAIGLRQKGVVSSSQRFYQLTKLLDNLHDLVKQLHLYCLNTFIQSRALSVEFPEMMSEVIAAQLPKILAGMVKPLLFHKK

[2] = biological target: T2, Androgen receptor (Homo sapiens) (UniProt P10275); assay: Binding affinity to androgen receptor (unknown origin) by radiometric competitive assay
T2 sequence (whole entry): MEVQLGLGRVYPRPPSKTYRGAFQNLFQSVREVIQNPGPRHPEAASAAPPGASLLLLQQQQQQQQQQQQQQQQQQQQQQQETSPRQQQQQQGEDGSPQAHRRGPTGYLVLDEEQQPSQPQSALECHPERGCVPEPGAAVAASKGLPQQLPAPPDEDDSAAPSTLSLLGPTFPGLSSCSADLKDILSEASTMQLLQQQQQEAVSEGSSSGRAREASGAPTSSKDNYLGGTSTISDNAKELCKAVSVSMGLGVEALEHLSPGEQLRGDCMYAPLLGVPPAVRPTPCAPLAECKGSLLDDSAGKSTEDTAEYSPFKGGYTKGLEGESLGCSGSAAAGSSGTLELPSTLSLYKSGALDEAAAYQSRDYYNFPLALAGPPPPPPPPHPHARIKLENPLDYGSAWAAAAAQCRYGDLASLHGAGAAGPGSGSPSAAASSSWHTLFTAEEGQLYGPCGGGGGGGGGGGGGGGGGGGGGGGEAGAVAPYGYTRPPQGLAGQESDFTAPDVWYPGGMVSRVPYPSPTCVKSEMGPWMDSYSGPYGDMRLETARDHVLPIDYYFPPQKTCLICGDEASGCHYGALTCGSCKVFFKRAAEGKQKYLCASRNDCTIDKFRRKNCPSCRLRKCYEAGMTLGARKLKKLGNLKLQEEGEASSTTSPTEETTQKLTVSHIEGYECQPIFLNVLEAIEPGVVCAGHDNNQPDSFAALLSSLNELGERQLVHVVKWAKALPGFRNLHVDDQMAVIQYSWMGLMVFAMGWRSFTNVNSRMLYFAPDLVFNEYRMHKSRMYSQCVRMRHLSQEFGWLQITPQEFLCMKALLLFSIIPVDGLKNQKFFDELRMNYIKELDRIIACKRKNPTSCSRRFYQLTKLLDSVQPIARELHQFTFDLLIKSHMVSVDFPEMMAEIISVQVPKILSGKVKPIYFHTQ

ClCCN(CCCl)c1ccccc1
Activity [1]: 4.2%
Activity [2]: 20%
